By UniProt entry, the sequences of proteins in these tests, tags left out.
UniProt Q9X6P4, whole entry: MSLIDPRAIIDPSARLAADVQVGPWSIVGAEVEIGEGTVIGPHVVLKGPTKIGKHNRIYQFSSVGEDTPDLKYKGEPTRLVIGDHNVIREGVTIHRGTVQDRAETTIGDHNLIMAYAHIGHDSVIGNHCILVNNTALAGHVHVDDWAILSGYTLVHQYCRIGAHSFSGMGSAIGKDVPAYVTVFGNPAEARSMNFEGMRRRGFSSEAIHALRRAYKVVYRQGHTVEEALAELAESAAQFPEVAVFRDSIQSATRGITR
UniProt Q9HXY6, whole entry: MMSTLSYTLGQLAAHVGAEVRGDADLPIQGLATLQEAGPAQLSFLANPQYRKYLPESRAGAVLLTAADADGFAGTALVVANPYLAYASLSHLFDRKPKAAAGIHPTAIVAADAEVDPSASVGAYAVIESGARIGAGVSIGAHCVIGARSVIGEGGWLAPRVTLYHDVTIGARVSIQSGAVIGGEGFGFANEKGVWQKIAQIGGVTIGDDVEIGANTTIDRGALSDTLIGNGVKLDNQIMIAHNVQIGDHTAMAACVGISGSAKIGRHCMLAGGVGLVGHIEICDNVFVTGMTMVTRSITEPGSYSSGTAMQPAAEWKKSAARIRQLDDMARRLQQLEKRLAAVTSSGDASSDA

According to PMC6820557, “Discovery of dual-activity small-molecule ligands of Pseudomonas aeruginosa LpxA and LpxD using SPR and X-ray crystallography” (Scientific Reports, 2019):

Key:
P. aeruginosa LpxA = P. aeruginosa LpxA (Pseudomonas aeruginosa, UniProt Q9X6P4); assay: Surface plasmon resonance binding to LpxA; settings: read-out: Binding affinity (Kd) LpxA; SPR, Biacore 4000, 25 °C, PBS-P+ 1% DMSO, analyte 2.5-40 µM in triplicate
Protocol: (§1) All experiments were conducted using a Biacore 4000 instrument with a CM5 chip at 25 °C. Avi-LpxA (31.6 kDa, 7.9 mg/mL stock concentration) and Avi-LpxD (39.8 kDa, 16.1 mg/mL stock concentration) were used as ligands to capture onto the NeutrAvidin immobilized CM5 chip surface. NeutrAvidin (60 kDa, 10 mg/mL) was diluted in 10 mM sodium acetate buffer at pH 4.5 (1:50 dilution, 200 µg/mL diluted concentration) and immobilized to a level of ~18000 RU, using standard amine coupling chemistry. This NeutrAvidin was immobilized onto all spots (Ss) of all flow cells (FCs). PBS-P (20 mM Phosphate buffer, pH 7.4, 2.7 mM KCl, 137 mM NaCl, 0.05% v/v surfactant P20) was used as the immobilization running buffer. Flow cell 3 off all flow cells were used as the reference spot. Avi-LpxA was diluted (1:75 dilution, 105.3 µg/mL diluted concentration) in PBS-P and injected onto S1 of all FCs (FCs 1–4). Avi-LpxD was diluted (1:75 dilution, 214.7 µg/mL diluted concentration) in PBS-P and injected onto S5 of all FCs. The ligands were captured in the presence of PBS-P. Based on the captured response values, theoretical Rmax values were calculated for the lowest and highest MW analytes. The Rmax values assume 1:1 interaction mechanism. Overnight kinetics were performed for all compounds in the presence of PBS-P+ 1% DMSO buffer. Contact time and dissociation time used in screening experiments were 60 seconds and 300 seconds respectively. Injected analyte concentrations were 0 µM, 2.5 µM, 5 µM, 10 µM, 20 µM, and 40 µM. The compounds were injected in triplicate for each concentration. Data from overnight kinetics were evaluated by steady state affinity or 1:1 kinetics model fitting. The SPR response curves and fitted curves can be found in Supplementary Fig. S1.

P. aeruginosa LpxD = P. aeruginosa LpxD (Pseudomonas aeruginosa, UniProt Q9HXY6); assay: Surface plasmon resonance binding to LpxD; settings: read-out: Binding affinity (Kd) LpxD; SPR, Biacore 4000, 25 °C, PBS-P+ 1% DMSO, analyte 2.5-40 µM in triplicate
Protocol: as §1

[1] = test system: laboratory P. aeruginosa strains; assay: Preliminary bacterial growth inhibition (MIC) study; settings: at 256 µg/mL; preliminary studies, data not shown

**Q.** Which Kd (P. aeruginosa LpxA) does the source give for C/C(=C\C(=O)Nc1nnn[nH]1)c1cccc(C(F)(F)F)c1 here?
**A.** The Kd was 13.6 µM.

**Q.** What about the Kd (P. aeruginosa LpxD) of the same molecule?
**A.** Its Kd is over 40 µM.

**Q.** What does the source list for O=C(COc1ccccc1)NNC1=NS(=O)(=O)c2ccccc21?
**A.** Kd (P. aeruginosa LpxA): 16.7 µM; Kd (P. aeruginosa LpxD): > 40 µM

**Q.** With NC(Cc1c[nH]c2ccc([N+](=O)[O-])cc12)C(=O)O (stereo not shown) as the molecule, how does the Kd (P. aeruginosa LpxA) read?
**A.** The Kd was 2.1 µM.

**Q.** And the Kd (P. aeruginosa LpxD)?
**A.** Its Kd is over 40 µM.

**Q.** And the “Inhibition of bacterial growth” value [1]?
**A.** The value was “did not show significant inhibition of bacterial growth”.
